{"source": "patent US20220081444A1", "about": "“6,7-DIHYDRO-4H-PYRAZOLO[1,5-A]PYRAZINE INDOLE-2-CARBOXAMIDES ACTIVE AGAINST THE HEPATITIS B VIRUS (HBV)” (AiCuris GmbH & Co. KG, priority 2018, published 2022)", "biological_target": "C-terminal truncated core protein (HBV core protein) (UniProt P03146, C48A/C61A/C107A, species not given)", "conditions": "read-out: Assembly Activity (IC50); BODIPY-FL labelled core protein, assembly started with NaCl, read after 6 min", "note": "pIC50: −log10 of the molar value.", "data": [{"substance": "3-yl)methyl]-4H,5H, 6H,7H-pyrazolo[1,5-a]pyrazin-2-amine [Example 25]", "values": [{"measurement": "pIC50", "value": "> 5.30"}]}]}
